Laboratory results as given in patent US20220204592A1 (VISTERRA, published 2022).

Biological target: H1 hemagglutinin (A/California/07/09) (influenza A virus A/California/07/09 …)

B1: Ab 032 (antibody, V domains shown)
VH: QVQLLETGGGLVKPGQSLKLSCAASGFTFTSYAMHWVRQPPGKGLEWVAVVSYDGNYKYYADSVQGRFTISRDNSKNTLYLQMNSLRAEDTAVYYCAKDSRLRSLLYFEWLSQGYFNPWGQGTTLTVSS
VL: DIQMTQSPSSLSASVGDRVTITCRSSQSITFNYKNYLAWYQQKPGKAPKLLIYWGSYLESGVPSRFSGSGSGTDFTLTISSLQPEDFATYYCQQHYRTPPSFGQGTKVEIK
**Q.** With B1 as the binder, how does the Kd read?
**A.** Its Kd is 0.016 nM.

**Q.** What about the koff of the same binder?
**A.** The koff was 2.45e-05 s⁻¹.

**Q.** And the kon?
**A.** Its kon is 1.55e+06 M⁻¹ s⁻¹.
